Tests used:
[1] = target: RSV RdRp complex (Human respiratory syncytial virus A, UniProt P28887); settings: for Km / Vmax: Michaelis-Menten fit, 30-minute time point, MgCl2 5 mM; for Selectivity (CTP over analogue): incorporation at template position +4, ratio of efficiency of CTP incorporation to that of the analogue
[2] = target: Zika RdRp (Zika virus, UniProt Q32ZE1); settings: for Km / Vmax: Michaelis-Menten fit, 30-minute time point, MnCl2 2.5 mM; for Selectivity (CTP over analogue): incorporation at template position +4, ratio of efficiency of CTP incorporation to that of the analogue
[3] = target: Ebola RdRp complex (Zaire ebolavirus, UniProt Q05318); settings: for Km / Vmax: Michaelis-Menten fit, 30-minute time point, MgCl2 5 mM; for Selectivity (CTP over analogue): incorporation at template position +4, ratio of efficiency of CTP incorporation to that of the analogue
[4] = target: FluB RdRp complex (Influenza B virus (B/Memphis/13/2003), UniProt Q5V8Y6); settings: for Km / Vmax: Michaelis-Menten fit, 30-minute time point, MnCl2 2.5 mM; for Selectivity (CTP over analogue): incorporation at template position +4, ratio of efficiency of CTP incorporation to that of the analogue
[5] = target: HCV RdRp (Hepatitis C virus genotype 1b, UniProt P26663); settings: for Km / Vmax: Michaelis-Menten fit, 30-minute time point, MgCl2 5 mM; for Selectivity (CTP over analogue): incorporation at template position +4, ratio of efficiency of CTP incorporation to that of the analogue
[6] = test system: EBOV; settings: non-human primates; Warren et al. 2016; cited from earlier work
[7] = test system: EBOV; settings: Warren et al. 2016; cited from earlier work
[8] = 5′-phosphorylated primer, FIG. 8

By UniProt entry, the sequences of proteins in these tests, tags left out. Where a name states a change or a piece, a line headed by the entry shows the natural chain unless it says otherwise. Residues count along the entry.
UniProt P28887: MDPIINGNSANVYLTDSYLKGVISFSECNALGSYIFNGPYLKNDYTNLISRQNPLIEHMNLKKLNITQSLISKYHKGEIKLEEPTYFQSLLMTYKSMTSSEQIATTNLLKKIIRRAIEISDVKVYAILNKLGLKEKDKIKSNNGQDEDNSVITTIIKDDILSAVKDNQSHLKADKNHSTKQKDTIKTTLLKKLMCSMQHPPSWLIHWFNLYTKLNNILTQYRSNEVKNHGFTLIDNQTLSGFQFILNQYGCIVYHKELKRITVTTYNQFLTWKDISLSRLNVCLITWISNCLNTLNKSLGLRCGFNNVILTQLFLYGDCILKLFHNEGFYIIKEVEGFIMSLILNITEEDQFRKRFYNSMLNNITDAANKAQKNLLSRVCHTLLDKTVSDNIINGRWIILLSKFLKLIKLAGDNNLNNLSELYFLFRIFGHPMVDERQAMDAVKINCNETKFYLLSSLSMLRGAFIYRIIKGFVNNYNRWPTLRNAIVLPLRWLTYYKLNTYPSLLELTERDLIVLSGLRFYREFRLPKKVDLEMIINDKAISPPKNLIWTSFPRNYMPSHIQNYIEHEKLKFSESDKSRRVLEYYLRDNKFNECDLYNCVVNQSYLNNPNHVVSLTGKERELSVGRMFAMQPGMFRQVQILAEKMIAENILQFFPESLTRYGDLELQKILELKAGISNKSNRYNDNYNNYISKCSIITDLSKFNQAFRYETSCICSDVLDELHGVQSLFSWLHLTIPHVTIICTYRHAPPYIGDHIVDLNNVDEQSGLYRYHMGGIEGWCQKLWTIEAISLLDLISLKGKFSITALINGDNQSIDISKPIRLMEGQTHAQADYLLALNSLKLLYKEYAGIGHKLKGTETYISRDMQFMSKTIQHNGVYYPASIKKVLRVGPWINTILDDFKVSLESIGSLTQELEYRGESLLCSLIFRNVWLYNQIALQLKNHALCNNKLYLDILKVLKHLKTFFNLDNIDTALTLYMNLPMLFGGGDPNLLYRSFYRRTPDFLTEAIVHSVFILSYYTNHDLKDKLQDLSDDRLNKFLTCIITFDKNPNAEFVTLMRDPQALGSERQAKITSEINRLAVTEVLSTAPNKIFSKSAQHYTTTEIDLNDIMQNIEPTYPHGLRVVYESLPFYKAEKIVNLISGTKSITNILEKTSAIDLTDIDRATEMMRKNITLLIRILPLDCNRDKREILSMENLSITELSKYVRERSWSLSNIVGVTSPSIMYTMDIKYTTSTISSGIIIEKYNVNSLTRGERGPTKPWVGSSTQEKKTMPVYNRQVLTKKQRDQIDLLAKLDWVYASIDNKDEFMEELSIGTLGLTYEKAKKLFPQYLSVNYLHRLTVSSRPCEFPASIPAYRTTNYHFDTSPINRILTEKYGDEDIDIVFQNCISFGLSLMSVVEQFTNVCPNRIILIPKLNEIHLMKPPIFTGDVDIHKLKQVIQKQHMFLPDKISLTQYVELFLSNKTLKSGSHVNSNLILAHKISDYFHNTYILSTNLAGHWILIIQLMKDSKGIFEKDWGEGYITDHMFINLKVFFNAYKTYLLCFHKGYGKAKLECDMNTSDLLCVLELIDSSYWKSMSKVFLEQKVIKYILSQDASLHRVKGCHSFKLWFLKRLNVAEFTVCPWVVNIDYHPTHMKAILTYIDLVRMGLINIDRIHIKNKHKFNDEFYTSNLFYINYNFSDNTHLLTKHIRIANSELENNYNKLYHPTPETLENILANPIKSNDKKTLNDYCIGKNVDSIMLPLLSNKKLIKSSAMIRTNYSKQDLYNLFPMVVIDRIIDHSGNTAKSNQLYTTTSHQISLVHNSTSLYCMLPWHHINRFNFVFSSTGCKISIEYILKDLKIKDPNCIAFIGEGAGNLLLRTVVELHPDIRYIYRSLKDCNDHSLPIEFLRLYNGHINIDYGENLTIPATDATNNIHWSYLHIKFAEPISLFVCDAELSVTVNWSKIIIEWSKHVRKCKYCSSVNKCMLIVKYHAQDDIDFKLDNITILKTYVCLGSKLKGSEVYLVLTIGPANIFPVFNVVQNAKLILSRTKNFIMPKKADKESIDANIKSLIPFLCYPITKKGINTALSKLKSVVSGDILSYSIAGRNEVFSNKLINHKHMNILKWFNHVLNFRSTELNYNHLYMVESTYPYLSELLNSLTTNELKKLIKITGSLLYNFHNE
UniProt Q32ZE1, 2517-3419 limits assumed: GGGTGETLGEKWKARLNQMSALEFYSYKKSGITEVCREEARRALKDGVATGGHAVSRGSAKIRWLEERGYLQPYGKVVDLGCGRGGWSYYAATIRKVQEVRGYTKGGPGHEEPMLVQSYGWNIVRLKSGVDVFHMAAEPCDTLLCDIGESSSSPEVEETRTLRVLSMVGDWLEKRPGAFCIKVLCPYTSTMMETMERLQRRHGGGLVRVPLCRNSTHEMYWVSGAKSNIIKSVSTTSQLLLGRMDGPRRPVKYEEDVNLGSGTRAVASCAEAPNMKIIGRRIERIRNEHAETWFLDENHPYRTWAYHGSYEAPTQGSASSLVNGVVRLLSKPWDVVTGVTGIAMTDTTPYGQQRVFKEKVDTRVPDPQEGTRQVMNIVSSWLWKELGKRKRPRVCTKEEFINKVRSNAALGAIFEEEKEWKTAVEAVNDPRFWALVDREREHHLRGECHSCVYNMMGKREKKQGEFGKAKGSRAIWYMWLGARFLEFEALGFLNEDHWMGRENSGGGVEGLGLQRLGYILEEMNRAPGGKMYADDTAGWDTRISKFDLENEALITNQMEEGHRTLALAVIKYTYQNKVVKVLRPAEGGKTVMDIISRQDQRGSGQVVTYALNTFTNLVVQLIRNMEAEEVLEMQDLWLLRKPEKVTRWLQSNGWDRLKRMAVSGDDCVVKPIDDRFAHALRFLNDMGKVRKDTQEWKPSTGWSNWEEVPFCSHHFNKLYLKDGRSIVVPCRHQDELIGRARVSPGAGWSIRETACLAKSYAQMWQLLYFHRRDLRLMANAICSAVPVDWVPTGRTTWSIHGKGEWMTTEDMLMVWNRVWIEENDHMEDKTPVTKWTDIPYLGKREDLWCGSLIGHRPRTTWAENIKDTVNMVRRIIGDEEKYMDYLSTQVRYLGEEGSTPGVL
UniProt Q05318: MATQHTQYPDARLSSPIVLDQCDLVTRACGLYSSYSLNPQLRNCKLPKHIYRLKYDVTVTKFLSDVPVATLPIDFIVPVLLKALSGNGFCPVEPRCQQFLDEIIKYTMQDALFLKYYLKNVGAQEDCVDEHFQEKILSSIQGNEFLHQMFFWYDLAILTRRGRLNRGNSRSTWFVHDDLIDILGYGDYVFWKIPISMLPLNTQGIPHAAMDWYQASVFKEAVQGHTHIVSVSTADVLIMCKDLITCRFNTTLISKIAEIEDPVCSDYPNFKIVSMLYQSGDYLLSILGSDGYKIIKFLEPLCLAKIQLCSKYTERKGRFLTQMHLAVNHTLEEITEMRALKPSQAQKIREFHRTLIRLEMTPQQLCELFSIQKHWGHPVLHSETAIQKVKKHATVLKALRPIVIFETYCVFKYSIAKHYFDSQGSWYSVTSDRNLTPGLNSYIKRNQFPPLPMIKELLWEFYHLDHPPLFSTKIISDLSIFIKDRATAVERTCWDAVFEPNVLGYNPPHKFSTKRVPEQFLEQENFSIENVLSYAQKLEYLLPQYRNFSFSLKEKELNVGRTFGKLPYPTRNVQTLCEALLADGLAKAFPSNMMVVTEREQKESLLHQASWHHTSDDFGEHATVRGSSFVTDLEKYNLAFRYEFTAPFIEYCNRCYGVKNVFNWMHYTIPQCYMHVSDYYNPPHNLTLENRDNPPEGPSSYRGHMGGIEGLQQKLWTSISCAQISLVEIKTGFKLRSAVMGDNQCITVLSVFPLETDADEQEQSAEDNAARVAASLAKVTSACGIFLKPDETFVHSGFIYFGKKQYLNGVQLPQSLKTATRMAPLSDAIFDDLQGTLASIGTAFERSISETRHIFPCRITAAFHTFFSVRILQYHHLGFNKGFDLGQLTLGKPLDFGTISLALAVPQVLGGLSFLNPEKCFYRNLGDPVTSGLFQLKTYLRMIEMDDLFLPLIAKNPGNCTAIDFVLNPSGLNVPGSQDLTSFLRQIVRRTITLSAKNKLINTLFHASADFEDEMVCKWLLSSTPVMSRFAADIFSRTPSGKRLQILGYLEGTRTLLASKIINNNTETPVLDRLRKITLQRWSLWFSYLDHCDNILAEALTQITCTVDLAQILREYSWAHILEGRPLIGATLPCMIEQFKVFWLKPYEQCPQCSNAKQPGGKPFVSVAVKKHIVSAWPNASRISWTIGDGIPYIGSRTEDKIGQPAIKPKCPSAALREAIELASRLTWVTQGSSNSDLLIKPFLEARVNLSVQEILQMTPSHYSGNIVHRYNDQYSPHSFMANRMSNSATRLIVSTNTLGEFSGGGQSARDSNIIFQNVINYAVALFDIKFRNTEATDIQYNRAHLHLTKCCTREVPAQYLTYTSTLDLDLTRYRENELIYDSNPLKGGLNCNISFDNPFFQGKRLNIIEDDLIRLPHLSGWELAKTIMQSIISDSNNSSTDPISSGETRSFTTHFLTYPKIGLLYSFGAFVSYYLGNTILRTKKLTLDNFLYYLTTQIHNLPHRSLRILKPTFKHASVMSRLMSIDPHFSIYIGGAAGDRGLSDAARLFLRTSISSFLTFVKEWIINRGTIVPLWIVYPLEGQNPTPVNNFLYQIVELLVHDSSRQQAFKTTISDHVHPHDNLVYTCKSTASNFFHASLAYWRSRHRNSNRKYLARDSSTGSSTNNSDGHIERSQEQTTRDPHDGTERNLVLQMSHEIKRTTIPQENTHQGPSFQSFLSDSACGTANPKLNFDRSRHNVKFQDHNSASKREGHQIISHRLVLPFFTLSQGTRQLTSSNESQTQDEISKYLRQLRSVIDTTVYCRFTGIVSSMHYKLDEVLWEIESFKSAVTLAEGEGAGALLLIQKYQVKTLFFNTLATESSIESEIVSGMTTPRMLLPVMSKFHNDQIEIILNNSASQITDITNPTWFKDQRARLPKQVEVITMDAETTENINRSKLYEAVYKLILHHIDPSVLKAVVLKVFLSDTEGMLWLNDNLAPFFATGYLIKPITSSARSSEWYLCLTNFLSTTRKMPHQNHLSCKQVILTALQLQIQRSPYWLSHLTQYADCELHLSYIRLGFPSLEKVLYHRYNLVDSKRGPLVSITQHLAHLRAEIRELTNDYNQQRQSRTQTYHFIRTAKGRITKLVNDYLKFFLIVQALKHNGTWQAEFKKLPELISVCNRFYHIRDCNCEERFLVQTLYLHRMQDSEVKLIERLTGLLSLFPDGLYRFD
UniProt P26663, 2420-3010 limits assumed: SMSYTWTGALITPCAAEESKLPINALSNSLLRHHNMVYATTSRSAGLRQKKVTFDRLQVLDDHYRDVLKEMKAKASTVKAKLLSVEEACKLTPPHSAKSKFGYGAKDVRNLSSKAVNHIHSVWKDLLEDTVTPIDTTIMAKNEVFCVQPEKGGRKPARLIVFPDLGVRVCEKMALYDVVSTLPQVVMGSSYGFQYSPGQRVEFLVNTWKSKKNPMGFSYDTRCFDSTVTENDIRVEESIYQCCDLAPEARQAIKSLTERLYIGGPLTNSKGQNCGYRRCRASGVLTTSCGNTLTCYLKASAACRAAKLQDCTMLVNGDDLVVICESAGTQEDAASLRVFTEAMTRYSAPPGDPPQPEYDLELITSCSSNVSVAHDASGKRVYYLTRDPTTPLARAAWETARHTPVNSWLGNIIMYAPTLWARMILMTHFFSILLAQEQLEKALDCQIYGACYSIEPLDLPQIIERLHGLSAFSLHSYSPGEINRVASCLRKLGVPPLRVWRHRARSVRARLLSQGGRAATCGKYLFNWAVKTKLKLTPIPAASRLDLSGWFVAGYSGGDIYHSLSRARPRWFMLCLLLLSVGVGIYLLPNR

SMILES	Km [1] [µM]	Vmax [1] [p. frac.]	Km [2] [µM]	Vmax [2] [p. frac.]	Km [3] [µM]	Vmax [3] [p. frac.]	Km [4] [µM]	Vmax [4] [p. frac.]	Km [5] [µM]	Vmax [5] [p. frac.]	Sel. (efficiency of CTP / efficiency of analogue) [1]	Selectivity (CTP over analogue) [1] [fold]	Sel. (efficiency of CTP / efficiency of analogue) [2]	Selectivity (CTP over analogue) [2] [fold]	Sel. (efficiency of CTP / efficiency of analogue) [3]	Selectivity (CTP over analogue) [3] [fold]	Sel. (efficiency of CTP / efficiency of analogue) [4]	Selectivity (CTP over analogue) [4] [fold]	Sel. (efficiency of CTP / efficiency of analogue) [5]	Selectivity (CTP over analogue) [5] [fold]	also measured
Nc1ccn([C@@H]2O[C@H](COP(=O)(O)OP(=O)(O)OP(=O)(O)O)[C@@H](O)[C@H]2O)c(=O)n1	0.049	0.70	0.0032	0.96	1.2	0.82	0.0038	0.88	0.0006	0.97	–	–	–	–	–	–	–	–	–	–	–
Nc1ccn([C@@H]2O[C@H](COP(=O)(O)OP(=O)(O)OP(=O)(O)O)[C@@H](O)[C@@H]2O)c(=O)n1	0.035	0.74	0.026	0.95	3.2	0.77	0.077	0.77	0.059	0.95	0.68	0.7	8	8	3	3	23	23	100	100	inhibition of RNA synthesis (chain-termination) after incorporation at position +4 [1, 8]: same pattern as the Ebola enzyme; inhibition of RNA synthesis (chain-termination) after incorporation at position +4 ([2]; 5′-phosphorylated primer, FIG. 8c): incomplete chain-termination; inhibition of RNA synthesis (chain-termination) after incorporation at position +4 [4, 8]: same pattern as the Ebola enzyme; inhibition of RNA synthesis (chain-termination) after incorporation at position +4 [5, 8]: same pattern as the Ebola enzyme
Nc1ccn([C@H]2C[C@H](O)[C@@H](COP(=O)(O)OP(=O)(O)OP(=O)(O)O)O2)c(=O)n1	0.45	0.27	0.25	0.83	63	0.59	0.01	0.38	0.34	0.84	24	24	90	90	73	73	6	6	654	654	–
CCC(CC)COC(=O)[C@H](C)N[P@](=O)(OC[C@H]1O[C@@](C#N)(c2ccc3c(N)ncnn23)[C@H](O)[C@@H]1O)Oc1ccccc1	–	–	–	–	–	–	–	–	–	–	–	–	–	–	–	–	–	–	–	–	post-exposure protection [6]: provided post-exposure protection; inhibition of EBOV infection in cell culture [7]: potent inhibitor

From patent US20200277648A1, “Recombinant RNA-Dependent RNA Polymerase of RNA Viruses” (published 2020)
